# Fitness effects across NS2B and the NS3 protease domain of Zika virus

Chain scanned (Zika virus MR766; NS2B from position 2 to 131, then the start of NS3):
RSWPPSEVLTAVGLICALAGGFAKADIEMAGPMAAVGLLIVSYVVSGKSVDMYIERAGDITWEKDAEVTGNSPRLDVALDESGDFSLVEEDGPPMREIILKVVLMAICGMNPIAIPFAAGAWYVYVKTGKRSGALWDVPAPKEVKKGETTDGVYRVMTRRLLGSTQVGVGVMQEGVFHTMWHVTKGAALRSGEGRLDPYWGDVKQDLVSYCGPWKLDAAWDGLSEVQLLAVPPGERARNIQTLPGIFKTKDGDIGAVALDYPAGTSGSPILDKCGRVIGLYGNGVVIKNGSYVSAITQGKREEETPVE

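Pools of virus carrying all single amino acid changes were selected for growth in Huh-7.5 cells. The effect is the change in frequency of a mutant, normalised to wild type, as a mean of three replicate libraries (two for positions 207-308). The study looked for pockets that tolerate few changes, as a guide for inhibitor design.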

Scale: log2 effect, wild type = 0; the lower, the more harmful to the virus. Substitutions are written as wild-type residue, site number, new residue. The region was split into three libraries (1-103, 104-206, 207-308). Stop codons (*) centre on -7 and mark the level of dead virus. Values above 0 are not proof of better growth: six high scorers were tested one by one, five grew less well than wild type and one about as well. The authors count -1 or higher as tolerated. Position 1 is the last residue of NS2A.

change | effect (log2)
R1S | -8.86
W3V | -7.19
P4K | -6.28
V12D | -6.22
L14E | -5.00
A17C | -0.19
A19H | -5.75
G21T | -3.49
G21W | -4.66
A23G | -1.55
K24F | -5.44
K24G | -3.89
E28* | -4.01
M29L | -1.18
A30T | 0.63
P32R | -7.75
M33E | -5.69
A35D | -5.42
I40H | -4.51
I40Y | -1.66
V41M | -3.16
V41P | -6.43
V44R | -7.20
S46G | -3.47
D51A | -5.57
D51I | -5.34
D51W | -5.84
M52C | -2.38
M52H | -6.42
I54Y | -5.93
E55P | -7.67
I60C | -5.85
W62T | -7.51
E63I | -2.89
V68D | -6.06
T69G | -2.85
T69H | -6.61
T69W | -6.39
P73N | -6.29
L75N | -6.85
A78Q | 0.62
D80N | -1.90
F85A | -5.87
S86F | -2.07
L104R | -8.25
M105A | -6.78
M110I | 4.21
P116H | -6.07
P116S | -7.10
A118V | -4.74
A119E | -5.70
G120F | -1.06
G120K | -6.02
K127C | -5.67
K127N | -4.26
A140F | -5.09
K145I | -0.70
K146Y | -2.83
G147K | -4.76
E148K | -2.36
E148Q | -1.14
D151N | -1.44
G152N | -5.52
V153S | -6.97
L161W | -5.01
T165K | -3.37
G170S | -7.13
G175H | -2.69
V176N | -3.42
V176R | -6.67
M180I | -5.56
H182D | -3.28
H182Y | -3.91
G186N | -4.22
L189* | -7.75
R190C | -4.26
G194W | -5.80
L196* | -7.66
W200N | -5.91
S209L | -7.15
W214A | -8.19
K215S | -3.80
L223V | -0.57
L229S | -3.07
G234W | -2.22
A237S | -0.55
I240A | -0.68
T242R | -7.12
G245A | -6.46
T249C | -0.53
A256T | -6.65
V257E | -4.76
A258F | -5.60
Y261T | -5.03
S266* | -7.97
I270F | -4.08
C274N | -0.04
V277A | -5.91
V277K | -4.74
I278C | -3.09
G279D | -4.56
G290K | -5.41
A295F | -4.80
T305K | -0.83

Excerpt, the final 14 entries:

For A256T the result was -6.65.
For V257E the result was -4.76.
For A258F the result was -5.60.
For Y261T the result was -5.03.
For S266* the result was -7.97.
For I270F the result was -4.08.
For C274N the result was -0.04.
For V277A the result was -5.91.
For V277K the result was -4.74.
For I278C the result was -3.09.
For G279D the result was -4.56.
For G290K the result was -5.41.
For A295F the result was -4.80.
For T305K the result was -0.83.

Source: Ni et al. 2025 (doi:10.1038/s41467-025-63602-z), supplementary data.